In patent US5147865A, “Phosphonopyrrolidine- and piperidine-containing pseudopeptides of the statin type, a process for their preparation and their use as medicaments against retroviruses” (Bayer Aktiengesellschaft, priority 1990, dated 1992) one finds IC50 data, which are given here for ten compounds.

Structures are written as SMILES. pIC50: −log10 of the molar value.

The target of the first experiment is HIV protease (Human immunodeficiency virus type 1 group M subtype B, UniProt P04585). Description: HIV-specific protease enzyme test (RP-HPLC analysis of synthetic peptide cleavage). The note with it: read-out: IC50 (RP-HPLC); purified HIV protease, synthetic peptide imitating a Gag precursor cleavage site; concentration causing 50% inhibition of protease activity. How it is done:
This is confirmed using an HIV-specific protease enzyme test.
The results for the examples listed below were determined by the HIV test system described in the following literature reports [cf. Hansen, J., Billich, S., Schulze, T., Sukrow, S. and Molling, K. (1988), EMBO Journal, Vol. 7, No. 6, pages 1785-1791]: purified HIV protease was incubated with synthetic peptide which imitated a cleavage site in the Gag precursor protein and represented an in vivo cleavage site of the HIV protease. The resulting cleavage products of the synthetic peptide were analysed by means of reverse phase high performance liquid chromatography (RP-HPLC). The IC50 values given relate to the substance concentration which causes a 50% inhibition of protease activity under the abovementioned test conditions.
As to `CCOP(=O)(OCC)C1CCCN1C(=O)C[C@H](O)[C@H](CC1CCCCC1)NC(=O)[C@@H](NC(=O)[C@H](Cc1ccccc1)NS(=O)(=O)c1ccc(C)cc1)C(C)C` (stereo partly shown), the pIC50 is 6.00.

`CCOP(=O)(OCC)C1CCCN1C(=O)C[C@H](O)[C@H](CC1CCCCC1)NC(=O)[C@H](Cc1ccccc1)NC(=O)Nc1ccc(Cl)cc1` (stereo partly shown): the pIC50 is 5.00.

`CCOP(=O)(OCC)C1CCCN1C(=O)C[C@H](O)[C@H](CC1CCCCC1)NC(=O)[C@@H](NC(=O)c1cc2ccccc2[nH]1)C(C)C` (stereo partly shown): the pIC50 was 5.00.

Consider `CCOP(=O)(OCC)C1CCCN1C(=O)C[C@@H](O)[C@H](CC1CCCCC1)NC(=O)[C@@H](NC(=O)c1ccc2ccccc2c1)C(C)C` (stereo partly shown), for which the pIC50 was 5.00.

`CCOP(=O)(OCC)C1CCCN1C(=O)C[C@H](O)[C@H](CC1CCCCC1)NC(=O)[C@@H](NC(=O)OC(C)(C)C)C(C)C` (stereo partly shown): the pIC50 is 4.00.

Regarding `CCOP(=O)(OCC)C1CCCN1C(=O)C[C@H](O)[C@H](CC1CCCCC1)NC(=O)[C@@H](NC(=O)[C@H](Cc1ccccc1)NC(C)=O)C(C)C` (stereo partly shown), the pIC50 was 7.00.

On to `CCOP(=O)(OCC)C1CCCN1C(=O)C[C@H](O)[C@H](CC1CCCCC1)NC(=O)[C@@H](NC(=O)[C@H](Cc1ccccc1)NC(=O)CC(C)(C)C)C(C)C` (stereo partly shown), for which the pIC50 is 6.30.

On to `CCOP(=O)(OCC)C1CCCN1C(=O)C[C@H](O)[C@H](CC1CCCCC1)NC(=O)[C@H](CC(N)=O)NC(=O)[C@H](Cc1ccccc1)NC(=O)OC(C)(C)C` (stereo partly shown), for which the pIC50 is 4.00.

`CCOP(=O)(OCC)C1CCCN1C(=O)C[C@@H](O)[C@H](CC1CCCCC1)NC(=O)[C@@H](NC(=O)c1cc2ccccc2[nH]1)C(C)C` (stereo partly shown): the pIC50 was 5.30.

Still in this experiment, the particulars now being: read-out: IC50 (RP-HPLC); purified HIV protease, synthetic peptide imitating a Gag precursor cleavage site; concentration causing 50% inhibition of protease activity; tested form: 2HCl.
For `CCOP(=O)(OCC)C1CCCN1C(=O)C[C@H](O)[C@H](CC1CCCCC1)NC(=O)[C@@H](N)C(C)C` (stereo partly shown), the pIC50 was 5.00.
